From publication PMC4347215 (Nature Communications, 2015) come the findings set out here.

In this assay the target is NA of seasonal H1N1 virus A/Brisbane/59/2007 on virus (Influenza A virus A/Brisbane/59/2007 …, UniProt D5F1R0, strain). As to the kind of experiment: ELISA; virus-coated plates; data not shown. The note with it: one partner purified. On the technique in general: An ELISA detects its analyte on a solid surface through an enzyme-linked reagent.

B1: monoclonal antibody CD6 (whole IgG) (antibody, V domains shown)
VH: QVKLQESGGGLVQPKGSLKLSCAASGFTFNTYAMNWVRQAPGKGLEWVARIRSKSNNYATFYADSVKDRFTISRDDSQSMLYLQMHNLKTDDTAMYYCVRPSIYYYASGYLDVWGAGTTVTVSS
VL: QIVLSQSPAILSASPGEKVTMTCRTSSSVSYMHWYQQKPGSSPKPWIYATSNLASGVPFRFSGSGSGTSYSLTISRVEAEDAATYYCQQWNSNPPTFGGGTKLEIK
notes: copies: 2 + 2
In the case of B1, the binding result is on record as “no binding”.
